Compound potency records, mixed from different reports. Data source: NIAID ChemDB in PubChem.

Common to all: tests in culture; agent: Mycobacterium tuberculosis

MIC50, MIC90 and the like: level of inhibition, or share of isolates inhibited.

compound,changes,read by,read-out,setting,dose,strain,value
O=C(O)c1cnc(C(=O)c2ccccc2)cn1,-,resazurin,inhibition,-,6.25 µg/mL,H37Rv,15%
Cc1ccc(-n2c(=O)oc3ccc(Br)cc3c2=S)cc1,-,-,MIC,14 d,-,My 331/88,0.5 µM
CC1COc2c(N3CCN(C(N)=NC#N)CC3)c(F)cc3c(=O)c(C(=O)O)cn1c23,-,broth dilution,MIC,-,-,H27Rv,0.312 µg/mL
COC(=O)c1cnc(C(=O)c2ccccc2)cn1,-,resazurin,EC50,-,-,H37Rv,>6.25 µg/mL
COc1c(O)cc2oc3cc(O)c(CCC(C)C)c(O)c3c(=O)c2c1CCC(C)C,MDR,resazurin,MIC,-,-,M11,1.56 µg/mL
COC1C[C@H](C)[C@@H](OC)C2=CC(=O)C=C(NC(=O)/C(C)=C/C=C\[C@H](C)C(OC(N)=O)/C(C)=C/[C@@H](C)[C@@H]1OC)C2=O,-,-,MIC,-,-,TAC-R,12.5 µg/mL
Cc1cc(C2=NOC(c3ccc(Cl)cc3)C2)ccc1O,-,-,MIC,-,-,H37R (MTB),0.83 µM
N#Cc1nc(/C=C/c2ccc3c(c2)OCO3)cnc1N,-,BACTEC,MIC bound,-,-,H37Rv,>12.5 µg/mL
COc1cccc(CSc2nc3ccccc3[nH]2)c1,-,-,MIC,-,-,My 331/88,250 µM
C[C@@H]1Oc2nc([N+](=O)[O-])cn2C[C@@H]1OCc1ccc(OC(F)(F)F)cc1,-,absorbance,MIC,-,-,H37Rv,0.2–0.4 µM
N#Cc1cnc(C(=O)c2ccc(O)cc2)cn1,-,resazurin,EC50,-,-,H37Rv,>6.25 µg/mL
Cc1cc(C2=NOC(c3ccccc3Cl)C2)ccc1O,-,-,MIC,-,-,INH-resistant M. tuberculosis,0.83 µM
CCC(=O)Oc1cc2oc3cc(OC(=O)CC)c(C(C)=O)c(CCC(C)C)c3c(=O)c2c(O)c1CCC(C)C,-,resazurin,MIC,-,-,H37Ra,1.56 µg/mL
O=[N+]([O-])c1ccc(-n2cc(CSC3c4ccccc4-c4ccccc43)nn2)cc1,-,broth dilution,MIC99,-,-,Specimen 192,>250 µM
CC(=O)NC[C@H]1CN(c2ccc(N3CCOCC3)c(F)c2)C(=O)O1,INH RIF EMB resistant,resazurin,MIC,-,-,Clinical isolate 19 RP,0.25 µg/mL
Brc1ccc(-n2cc(CSC3c4ccccc4-c4ccccc43)nn2)cc1,-,broth dilution,MIC99,-,-,Specimen 192,57.55 µM
CCn1c(-c2ccc(N=Nc3c(C)[nH][nH]c3=O)cc2)n[nH]c1=S,-,-,EC50,-,-,H37Rv,>12.5 µg/mL
Cc1c(N2CC3CCCNC3C2)c(F)cc2c(=O)c(C(=O)O)cn([C@@H]3C[C@@H]3F)c12,-,-,MIC,-,-,51 (RFP-resistant),0.05 µg/mL
Cc1cc(C2=NOC(c3c(Cl)cccc3Cl)C2)ccc1O,-,-,MIC,-,-,INH-resistant M. tuberculosis,2.9 µM
CC(C)C1C(=O)N(c2c(F)c(F)c(F)c(F)c2F)C(=S)N1CCS(=O)c1ccccc1,-,BACTEC,MIC bound,-,-,H37Rv,>12.5 µg/mL
C=CCn1c(-c2ccc(N=Nc3c(C)[nH]n(-c4ccccc4)c3=O)cc2)n[nH]c1=S,-,-,inhibition,-,12.5 µg/mL,H37Rv,40%
COc1ccc2oc(=O)n(-c3ccc(C(F)(F)F)cc3)c(=S)c2c1,-,-,MIC,21 d,-,My 331/88,32 µM
CC1=C(C(=O)Nc2ccc([N+](=O)[O-])cc2)C(c2ccc(Cl)cc2Cl)C(C(=O)Nc2ccc([N+](=O)[O-])cc2)=C(C)N1,-,-,EC50,-,-,H37Rv,<2.5 µg/mL
O=[N+]([O-])c1ccccc1CSc1nc2ccccc2[nH]1,-,-,MIC,-,-,My 331/88,250 µM
NNC(=O)Cc1ccc2ccccc2c1,-,BACTEC,inhibition,-,12.5 µg/mL,H37Rv,10%
Cc1[nH]n(-c2ccccc2)c(=O)c1N=Nc1ccc(-c2n[nH]c(=O)n2-c2ccccc2)cc1,-,-,EC50,-,-,H37Rv,>12.5 µg/mL
Cc1cc(C2=NOC(c3ccco3)C2)ccc1O,-,-,MIC,-,-,H37R (MTB),2.76 µM
CO[C@H]1/C=C/O[C@@]2(C)Oc3c(C)c(O)c4c(O)c(c(/C=N/N5CCN(C6CCCC6)CC5)c(O)c4c3C2=O)NC(=O)/C(C)=C\C=C\[C@H](C)[C@H](O)[C@@H](C)[C@@H](O)[C@@H](C)[C@H](OC(C)=O)[C@@H]1C,-,-,MIC,-,-,L213,0.2 µg/mL
Clc1ccc(-n2cc(CSC3c4ccccc4-c4ccccc43)nn2)cc1Cl,-,broth dilution,MIC99,-,-,Specimen 192,>236 µM
O=[N+]([O-])c1cn2c(n1)OC[C@@H](OCc1ccc(OCc3ccccc3)cc1)C2,-,-,MIC,-,-,H37Rv-T3 (PA-824-resistant),>100 µM
O=C(O)c1cnc(C(=O)c2ccccc2O)cn1,-,resazurin,EC50,-,-,H37Rv,>6.25 µg/mL
Fc1cccc(CSc2nc3ccccc3[nH]2)c1,-,-,MIC,-,-,My 331/88,125 µM
O=C(O)c1cn(C2CC2F)c2c(Cl)c(N3CC4CCCNC4C3)c(F)cc2c1=O,-,-,MIC,-,-,44 (RFP-resistant),0.025 µg/mL
Cc1cc(C2=NOC(c3ccc(F)cc3)C2)ccc1O,-,-,MIC,-,-,H37R (MTB),1.32 µM
CN(C)c1ccc(C(C2=C(O)c3ccccc3C(=O)C2=O)C2=C(O)c3ccccc3C(=O)C2=O)cc1,-,BACTEC,MIC,-,-,H37Rv,≥12.5 µg/mL
NC(=S)c1cnc(C(=O)c2ccc(Cl)cc2)cn1,-,resazurin,EC50,-,-,H37Rv,<6.25 µg/mL
Fc1cccc(-n2c(=S)oc3ccc(Cl)cc3c2=S)c1,-,-,MIC,14 d,-,My 331/88,2 µM
CCCOc1cc2oc3cc(O)c(CCC(C)C)c(O)c3c(=O)c2c(CCC(C)C)c1OC,-,resazurin,MIC,-,-,H37Ra,0.78 µg/mL
CCN(CC)CC[n+]1ccc2c(C)c3[nH]c4ccccc4c3c(C)c2c1,-,resazurin,MIC bound,-,-,H37Rv,<6.25 µg/mL
CC1=C(C(=O)Nc2ccc([N+](=O)[O-])cc2)C(c2ccc(Cl)cc2)C(C(=O)Nc2ccc([N+](=O)[O-])cc2)=C(C)N1,-,-,inhibition,-,2.5 µg/mL,H37Rv,62%
CC(=O)Oc1ccccc1C(=O)Nc1ncc([N+](=O)[O-])s1,-,visual reading,MIC,-,-,Haarlem spoligotype 168,28 µg/mL
CO/C(=N\N=C\c1ccc(OC)cc1OC)c1ccncc1,-,-,MIC,-,-,16PI,>20 µg/mL
COc1c(OC(=O)c2ccccc2)cc2oc3cc(OC(=O)c4ccccc4)c(CCC(C)C)c(O)c3c(=O)c2c1CCC(C)C,-,resazurin,MIC,-,-,H37Ra,12.5 µg/mL
Cc1ccc2oc(=O)n(-c3ccc(C(F)(F)F)cc3)c(=S)c2c1,-,-,MIC,21 d,-,My 331/88,8 µM
COc1ccc(C2C(C(=O)Nc3cc(C)ccc3C)=C(C)NC(C)=C2C(=O)Nc2cc(C)ccc2C)cc1,-,-,inhibition,-,2.5 µg/mL,H37Rv,41%
CC1=NN(c2ccccc2)C(=O)C1N=Nc1ccc(S(=O)(=O)Nc2nccc(C)n2)cc1,-,BACTEC,inhibition,-,12.5 µg/mL,H37Rv,22%
CCn1c(-c2ccc(N=Nc3c(C)[nH]n(CCO)c3=O)cc2)n[nH]c1=S,-,-,MIC,-,-,H37Rv,>12.5 µg/mL
Cc1c(N2C[C@@H](N)C3(CC3)C2)c(F)cc2c(=O)c(C(=O)O)cn([C@@H]3C[C@@H]3F)c12,-,-,MIC,-,-,43 (RFP-susceptible),0.1 µg/mL
S=c1[nH]c2ccccc2[nH]1,-,-,MIC,-,-,My 331/88,1000 µM
COc1cc(/C=C/C(=N\NS(=O)(=O)c2ccc(C)cc2)c2sc(NNC(C)=O)nc2C)ccc1O,-,resazurin,inhibition,-,6.25 µg/mL,H37Rv,12%
CCCCCC1(C)Cn2cc([N+](=O)[O-])nc2O1,-,-,MIC,-,-,H37Rv,0.1 µM
COC1=NS(=O)(=O)N=C(C)O1,-,BACTEC,inhibition,-,12.5 µg/mL,H37Rv,16%
COc1ccc(/C(C)=N/NC(=O)c2ccncc2)cc1F,-,-,MIC,-,-,6 PI,>20 µg/mL
Cc1cc(C2=NOC(c3cccc([N+](=O)[O-])c3)C2)ccc1O,-,-,MIC,-,-,H37R (MTB),6.25 µM
NC(=O)c1cnccn1,-,-,MIC,-,-,Isolate 97-1052,300 µg/mL
O=c1oc2ccc(Br)cc2c(=S)n1-c1ccc(Cl)c(Cl)c1,-,-,MIC,21 d,-,My 331/88,4 µM
Cc1ccc(-n2cc(CSC3c4ccccc4-c4ccccc43)nn2)cc1C,-,broth dilution,MIC99,-,-,Specimen 192,>261 µM
CN(C)C1=C(Cl)C(=O)c2[nH]cnc2C1=O,-,BACTEC,inhibition,-,12.5 µg/mL,H37Rv,0%
COc1ccc(/C(C)=N/NC(=O)c2ccncc2)cc1OC,-,-,MIC,-,-,6 PI,>20 µg/mL
CO[C@H]1/C=C/O[C@@]2(C)Oc3c(C)c(O)c4c(O)c(c(/C=N/N5CCN(C)CC5)c(O)c4c3C2=O)NC(=O)/C(C)=C\C=C\[C@H](C)[C@H](O)[C@@H](C)[C@@H](O)[C@@H](C)[C@H](OC(C)=O)[C@@H]1C,-,resazurin,MIC,-,-,M-3,>2 µg/mL
COc1ccccc1NC(=O)C1=C(C)NC(C)=C(C(=O)Nc2ccccc2OC)C1c1ccc(N(C)C)cc1,-,-,inhibition,-,2.5 µg/mL,H37Rv,93%
COc1ccc2oc(=O)n(-c3ccccc3)c(=S)c2c1,-,-,MIC,14 d,-,My 331/88,16 µM
COc1cc(C2OCC3C(c4cc(OC)c(OC)c(OC)c4)OCC23)cc(OC)c1OC,-,BACTEC,MIC bound,-,-,H37Rv,>12.5 µg/mL
CCCCCCCCCCCCCCCCSc1nc2ccccc2[nH]1,-,-,MIC,-,-,My 331/88,>125 µM
CCSC(SCC)[C@H](O)[C@H](O)[C@@H](O)[C@H](C)O,-,resazurin,MIC bound,-,-,H37Rv,>6.25 µg/mL
COc1cc(C2CC(c3ccc(O)c(C)c3)=NO2)ccc1O,-,-,MIC,-,-,H37R (MTB),>6.25 µM
CO/C(=N\N=C\c1ccccc1F)c1ccncc1,-,-,MIC,-,-,16PI,>20 µg/mL
NNC(=O)C(=O)N=Cc1ccc([N+](=O)[O-])o1,-,BACTEC,MIC,-,-,H37Rv,3.13 µg/mL
CCOc1cc2oc3cc(=O)/c(=C(\C)O)c(CCC(C)C)c3c(O)c2c(=O)c1CCC(C)C,-,resazurin,MIC,-,-,H37Ra,12.5 µg/mL
CC(C)CSc1nc2ccccc2[nH]1,-,-,MIC,-,-,My 331/88,>125 µM
Cc1cc(N=C2C=CC(=[N+](C)C)C=C2)c(N)cc1N,-,BACTEC,MIC bound,-,-,H37Rv,≤12.5 µg/mL
O=[N+]([O-])c1ccc(-n2cc(CS(=O)(=O)C3c4ccccc4-c4ccccc43)nn2)cc1,-,broth dilution,MIC99,-,-,H37Rv,>231 µM
CC(C)N=c1cc2n(-c3ccc(Cl)cc3)c3ccccc3nc-2cc1Nc1ccc(Cl)cc1,-,broth dilution / resazurin,MIC,-,-,MDR12,2 µg/mL
C=C1C(=O)OC2CC3(C)C(O)CCC(C)(O)C3CC12,-,BACTEC,inhibition,-,12.5 µg/mL,H37Rv,-25%
Cc1[nH]n(-c2ccccc2)c(=O)c1N=Nc1ccc(C(=O)N/N=C/c2ccc(F)cc2)cc1,-,-,MIC,-,-,H37Rv,>12.5 µg/mL
COc1cc2c(cc1OC)C1CC(CC(N)=O)(C(N)=O)CCN1CC2,-,BACTEC,MIC,-,-,H37Rv,≥12.5 µg/mL
O=S(=O)(Cc1cn(-c2ccccc2Cl)nn1)C1c2ccccc2-c2ccccc21,-,broth dilution,MIC99,-,-,H37Rv,237 µM
CC1SC2=NC3=C(c4ccccc4C3=O)C(c3ccccc3Cl)N2C1=O,-,BACTEC,MIC bound,-,-,H37Rv,>12.5 µg/mL
NC(=S)c1cnc(C(=O)c2ccc(O)cc2)cn1,-,resazurin,EC50,-,-,H37Rv,>6.25 µg/mL
Cc1cc(=O)oc2c(C)c3oc(CBr)c(Br)c3cc12,-,resazurin,MIC bound,-,-,H37Rv,>6.25 µg/mL
N#Cc1cnc(C(=O)c2ccc(Cl)cc2)cn1,-,resazurin,inhibition,-,6.25 µg/mL,H37Rv,12%
O=[N+]([O-])c1ccc(-c2cc(O)c3nc4ccccc4n3c2)cc1,-,resazurin,inhibition,-,6.25 µg/mL,H37Rv,7%
O=S(=O)(Cc1cn(-c2ccc(Br)cc2)nn1)C1c2ccccc2-c2ccccc21,-,broth dilution,MIC99,-,-,H37Rv,>214 µM
CCn1c2cc(C)c(C)cc2nc2cc3c(cc21)c(Cl)c(=O)c1ccccc13,-,BACTEC,MIC,-,-,H37Rv,3.13 µg/mL
Cc1ccc2oc(=O)n(-c3ccccc3)c(=S)c2c1,-,-,MIC,21 d,-,My 331/88,2 µM

Rows are shuffled and stem from different studies. Blank or dashed fields: not listed here. Inhibition is in % at the dose shown (toxicity tests: loss of growth or viability). MIC bound comes from a single tested concentration. Two numbers with a dash give a range or band. ECn is the concentration giving n% inhibition of infection, replication or growth.